Experimental data as given in the supplement of paper PMC9931576.
Human monoclonal antibodies against the spike receptor-binding domain (heavy:light variable regions). IC50 against pseudoviruses bearing the spike of naturally observed variants; lower = stronger; >10 µg/ml means not reached at the top dose. No active / inactive call. The stated detection limit is 0.0005 µg/ml; values near or below 0.001 µg/ml lie at the floor of the assay.

B1: BD56-1810 (protein)
chain 1: QVQLVESGGGVVQPGRSLKLSCAASGFTFNNFGMHWVRQAPGKGLQWVAVISSDGSYKGYEDSVKGRFTLSRDNSKNMVYLLMNSLRDEDTAVYYCAKEEGEMTTHFDYWGQGTLVTVSS
chain 2: DIQVTQSPTSLSASVGDRVTITCRASQSISRHLNWYQQRPGKAPRLLIYAASSLQSGVPSRFSGSGSGTDFTLTISSLQPEDFATYYCQQNYETPPWTFGQGTRVEIK
B2: BD56-1826 (protein)
chain 1: ELHLVESGGGLVQPGRSLRLSCGASGFSFDDYGMHWVRQPPGKGLEWVSGITWNSGVIGYADSVKGRFIISRDNAKNSLYLQMRNLRTEDTALYFCAKDTRRSSDYRLDEQYFFDYWGQGTLVTVSS
chain 2: SYVLTQPPSVSVAPGETARITCGGYNIGSKSVHWYQQRPGQAPVLVIYYDSDRPSGIPERFSGSNSANTATLTISRVEAGDEADYYCQVWDSNSDQVAFGGGTKLTVL
B3: BD56-1808 (protein)
chain 1: QVQLVQSGAEVKKPGSSVKVSCKASGGTFSSYTFTWVRQAPGQGLEWMGSVIPILNIPNYAQNFQGRVTITADKSTSTAYMELSSLRSEDTAFYYCALARGYSGTGSSYCFDYWGRGTLLTVSS
chain 2: HSVLTQPPSVSGAPGQRVTISCTGTNSNIGAGYDVHWYQQLPGTAPKLLIYINNNRPSGVPDRFSGAKSGTSASLAITGLQAEDEADYYCQSYDSSLSGSVFGGGTKLTVL
B4: BD56-1825 (protein)
chain 1: QVTLRESGPALVKPTQTLTLTCTFSGFSLSTRGMCVAWIRQPPGKALEWLARIDWDDDRYYRTSLKTRLTVSKDTSKNQVVLTMTNMDPADTATYYCARTRVAYGDFGEFDPWGQGTLVTVSS
chain 2: DIQMTQSPSSLSASVGDRVTITCRPSENITTYLNWYQQKPGKAPKLLIYAASSLQNGVPSRFSGSGSATDFTLTISSLQPDDFATYYCQQSYSTPQTFGQGTKVETK
B5: BD56-1824 (protein)
chain 1: EVQLVESGGGLVQPGRSLRLSCAASGFVFDDYAIHWVRQAPGKGLEWVSGVTWNSGTIGYADSVKGRFIISRDNAKNTLYLQMNRLRAEDTALYYCAKDQSGDGERAFDYWGQGTLVTVSS
chain 2: SYVLTQPPSVSVAPGQTARMTCGGNNIGSKSVHWYQQKPGQAPVLVVYDDSDRPSGIPERFSGSNSGNTATLTISRVEAGDEADYYCQVWNSDTDHVVFGGGTKLTVL
B6: BD56-1815 (protein)
chain 1: EMQLVQSGPEVKKPGTSVKVSCKASGFTFDISAVQWVRQARGQRLEWIGWIAPGGGETDYARMFQERVSITRDMSTSTAYMELSSLRSEDTAVYFCAAPHCNRTSCYDGFDIWGQGTVVTVSS
chain 2: EIVLTQSPGTLSLSPGERATLSCRASQSVRSSHLAWYQQKPGQAPRLLIYGASSRATGIPDRFSGSGSGTDFTLTISRLEPEDFAVYYCQQYGNSLWTFGQGTKVEIK

Key:
Assay in all cases: pseudovirus neutralization IC50; higher = weaker neutralization
[1] = molecular target: SARS-CoV-2 Omicron BA.1 spike pseudovirus
Procedure: (§1)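 Single-round VSV luciferase pseudovirus mixed with antibody dilutions for 1 h and put on Huh-7 cells for about a day; IC50 from the dose curve.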

[2] = molecular target: SARS-CoV-2 Omicron BA.2 spike pseudovirus
Procedure: as §1

[3] = molecular target: SARS-CoV-2 Omicron BA.2.75 spike pseudovirus
Procedure: as §1

[4] = molecular target: SARS-CoV-2 Omicron BA.5 spike pseudovirus
Procedure: as §1

[5] = molecular target: SARS-CoV-2 Omicron BQ.1.1 spike pseudovirus
Procedure: as §1

[6] = molecular target: SARS-CoV-2 Omicron XBB spike pseudovirus
Procedure: as §1

[7] = molecular target: SARS-CoV-2 early D614G spike pseudovirus
Procedure: as §1

Binder | pseudovirus neutralization IC50 [1] [µg/mL] | pseudovirus neutralization IC50 [2] [µg/mL] | pseudovirus neutralization IC50 [3] [µg/mL] | pseudovirus neutralization IC50 [4] [µg/mL] | pseudovirus neutralization IC50 [5] [µg/mL] | pseudovirus neutralization IC50 [6] [µg/mL] | pseudovirus neutralization IC50 [7] [µg/mL]
B1 | > 10 | > 10 | > 10 | > 10 | > 10 | > 10 | 0.472
B2 | 0.0349 | 0.0147 | 0.0235 | 0.198 | > 10 | > 10 | 0.00479
B3 | > 10 | > 10 | 0.992 | > 10 | > 10 | > 10 | 0.652
B4 | 0.634 | 0.00137 | 1.71 | 0.000563 | > 10 | > 10 | 0.0353
B5 | 0.0182 | 0.0242 | 0.0108 | > 10 | > 10 | > 10 | 0.00421
B6 | 0.00148 | 0.00131 | 0.00147 | 0.0214 | 0.144 | > 10 | 0.00217
